# Reference: PubChem BioAssay (NCATS)
# Chains of the proteins cited; added tags and fusions are not shown. Residues count along the entry.
# UniProt O15648, whole entry: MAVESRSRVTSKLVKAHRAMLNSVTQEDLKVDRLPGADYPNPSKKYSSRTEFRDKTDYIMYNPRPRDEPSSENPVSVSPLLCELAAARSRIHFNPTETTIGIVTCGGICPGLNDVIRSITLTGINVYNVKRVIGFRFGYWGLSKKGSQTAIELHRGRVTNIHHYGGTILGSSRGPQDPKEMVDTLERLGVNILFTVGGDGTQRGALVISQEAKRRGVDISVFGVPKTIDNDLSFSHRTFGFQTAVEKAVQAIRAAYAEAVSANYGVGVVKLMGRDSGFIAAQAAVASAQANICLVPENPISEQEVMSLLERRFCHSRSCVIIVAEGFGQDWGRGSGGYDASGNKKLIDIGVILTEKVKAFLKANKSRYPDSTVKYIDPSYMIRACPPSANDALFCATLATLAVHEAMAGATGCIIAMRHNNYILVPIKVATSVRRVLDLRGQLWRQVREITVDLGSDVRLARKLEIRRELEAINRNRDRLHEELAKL
# UniProt Q27686, 2-499 E452W limits assumed: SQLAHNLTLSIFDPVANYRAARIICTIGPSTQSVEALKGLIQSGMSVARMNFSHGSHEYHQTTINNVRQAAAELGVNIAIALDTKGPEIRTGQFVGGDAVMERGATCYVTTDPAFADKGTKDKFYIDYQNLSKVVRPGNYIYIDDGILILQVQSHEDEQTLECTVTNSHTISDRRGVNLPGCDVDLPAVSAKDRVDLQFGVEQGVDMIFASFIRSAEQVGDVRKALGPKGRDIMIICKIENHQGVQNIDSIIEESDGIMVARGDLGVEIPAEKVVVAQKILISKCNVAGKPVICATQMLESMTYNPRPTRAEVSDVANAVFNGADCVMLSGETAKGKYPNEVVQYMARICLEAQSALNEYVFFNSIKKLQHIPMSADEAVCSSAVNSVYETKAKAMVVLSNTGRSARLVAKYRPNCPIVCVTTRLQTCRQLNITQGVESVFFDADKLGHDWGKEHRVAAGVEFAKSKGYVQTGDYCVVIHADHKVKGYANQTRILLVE
# UniProt P13267, whole entry: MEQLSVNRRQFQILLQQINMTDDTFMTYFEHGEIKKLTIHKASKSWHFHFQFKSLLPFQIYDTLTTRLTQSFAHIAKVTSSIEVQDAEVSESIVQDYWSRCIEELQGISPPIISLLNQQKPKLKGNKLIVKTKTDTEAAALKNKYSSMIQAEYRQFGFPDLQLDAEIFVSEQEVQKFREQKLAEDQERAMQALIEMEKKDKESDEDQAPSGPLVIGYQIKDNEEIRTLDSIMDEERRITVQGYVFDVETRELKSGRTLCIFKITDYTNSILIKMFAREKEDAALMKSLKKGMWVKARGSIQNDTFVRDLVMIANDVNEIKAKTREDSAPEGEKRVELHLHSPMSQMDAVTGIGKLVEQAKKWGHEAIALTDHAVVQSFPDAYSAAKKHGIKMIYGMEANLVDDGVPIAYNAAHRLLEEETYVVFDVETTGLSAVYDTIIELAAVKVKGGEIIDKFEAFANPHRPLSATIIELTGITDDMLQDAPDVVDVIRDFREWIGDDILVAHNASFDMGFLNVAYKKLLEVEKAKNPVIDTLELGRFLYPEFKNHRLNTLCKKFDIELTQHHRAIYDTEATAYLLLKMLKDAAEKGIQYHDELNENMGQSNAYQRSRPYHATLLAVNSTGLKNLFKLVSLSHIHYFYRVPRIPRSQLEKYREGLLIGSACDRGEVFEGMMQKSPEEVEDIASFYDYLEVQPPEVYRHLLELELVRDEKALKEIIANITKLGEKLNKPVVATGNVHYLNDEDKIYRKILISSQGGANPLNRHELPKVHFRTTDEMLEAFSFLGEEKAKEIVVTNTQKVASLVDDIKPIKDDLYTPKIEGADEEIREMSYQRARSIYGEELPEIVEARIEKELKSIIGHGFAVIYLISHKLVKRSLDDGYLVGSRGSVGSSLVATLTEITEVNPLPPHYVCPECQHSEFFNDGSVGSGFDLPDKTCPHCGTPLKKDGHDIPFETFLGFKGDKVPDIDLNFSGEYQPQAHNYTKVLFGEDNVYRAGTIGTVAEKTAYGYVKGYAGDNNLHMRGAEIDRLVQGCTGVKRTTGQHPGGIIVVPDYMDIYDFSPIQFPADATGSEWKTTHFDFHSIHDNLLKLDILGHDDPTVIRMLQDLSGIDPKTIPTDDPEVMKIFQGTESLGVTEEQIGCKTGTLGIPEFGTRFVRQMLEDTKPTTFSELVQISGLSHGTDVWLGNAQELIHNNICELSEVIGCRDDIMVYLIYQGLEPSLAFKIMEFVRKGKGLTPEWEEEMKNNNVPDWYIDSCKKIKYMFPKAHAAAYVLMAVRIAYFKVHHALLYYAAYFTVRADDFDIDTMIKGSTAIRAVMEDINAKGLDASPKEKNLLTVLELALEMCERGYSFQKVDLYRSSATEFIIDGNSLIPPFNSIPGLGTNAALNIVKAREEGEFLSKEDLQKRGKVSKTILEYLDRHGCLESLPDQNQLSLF
# UniProt Q99816, whole entry: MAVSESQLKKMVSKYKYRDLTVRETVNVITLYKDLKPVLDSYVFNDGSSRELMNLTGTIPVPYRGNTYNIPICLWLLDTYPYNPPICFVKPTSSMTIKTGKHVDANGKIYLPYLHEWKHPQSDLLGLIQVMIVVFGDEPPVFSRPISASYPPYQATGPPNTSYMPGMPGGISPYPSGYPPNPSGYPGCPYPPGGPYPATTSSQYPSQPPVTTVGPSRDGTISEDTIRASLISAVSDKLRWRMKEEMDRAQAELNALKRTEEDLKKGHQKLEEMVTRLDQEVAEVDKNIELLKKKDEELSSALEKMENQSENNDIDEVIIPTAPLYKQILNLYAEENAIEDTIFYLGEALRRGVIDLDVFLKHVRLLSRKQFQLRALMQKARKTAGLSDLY
# UniProt Q4Q090, 1-553: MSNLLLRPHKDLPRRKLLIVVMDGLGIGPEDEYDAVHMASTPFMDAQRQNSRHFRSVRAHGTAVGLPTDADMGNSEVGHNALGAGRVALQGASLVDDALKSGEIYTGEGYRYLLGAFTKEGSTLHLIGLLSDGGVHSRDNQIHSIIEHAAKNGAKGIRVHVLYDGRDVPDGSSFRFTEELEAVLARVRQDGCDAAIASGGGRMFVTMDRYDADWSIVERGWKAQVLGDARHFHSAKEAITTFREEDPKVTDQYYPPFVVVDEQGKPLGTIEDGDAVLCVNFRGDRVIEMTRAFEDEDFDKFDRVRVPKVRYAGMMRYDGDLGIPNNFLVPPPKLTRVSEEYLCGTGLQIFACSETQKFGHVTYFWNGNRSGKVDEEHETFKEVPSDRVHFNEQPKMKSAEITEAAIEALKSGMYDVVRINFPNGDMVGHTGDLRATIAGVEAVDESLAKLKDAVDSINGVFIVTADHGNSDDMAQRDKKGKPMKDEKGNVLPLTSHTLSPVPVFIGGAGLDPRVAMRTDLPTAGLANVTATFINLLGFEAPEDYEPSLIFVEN
# The list shows a part of the results, in another mix than the full data. Inconclusive results are not listed. Activity calls are given as the source filed them. Unless noted, the call rests on the fitted dose curve; in most records, active means well fitted curve in the direction sought with a large enough effect; inconclusive means small, poorly fitted or top-dose-only effect, or another doubt; inactive means no such curve, though single readings can be large; an effect the other way counts as inactive or inconclusive.
# Tests used:
# [1] = target: ATP-dependent 6-phosphofructokinase (Trypanosoma brucei brucei) (UniProt O15648); test: qHTS Assay to Find Inhibitors of T. brucei phosphofructokinase: hit validation (AID 492961); further: on the % scale 0 is the no-effect control and ±100 the full control effect; conditions: T. brucei PFK, ADP-Glo luminescence; at 51.4 µM (top of the series) unless noted
# Procedure, shortened: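 Luminescence from ADP-Glo reports ADP generated as T. brucei PFK (1.25 nM) phosphorylates 0.5 mM fructose-6-phosphate using 0.1 mM ATP. Reactions ran 45 min at room temperature, pH 8.0.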
# [2] = target: Pyruvate kinase (Leishmania mexicana) (UniProt Q27686); test: qHTS Validation Assay for Inhibitors of Leishmania Mexicana Pyruvate Kinase (AID 945);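 further: 0% = DMSO only neutral control wells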; conditions: purified L. mexicana pyruvate kinase, enzyme activity, E451W mutant enzyme; at 57.5 µM (top of the series)
# Procedure, shortened: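 LmPYK E451W 0.2 nM; 0.5 mM PEP, 0.1 mM ADP, 7 mM MgCl2, 50 mM KCl, imidazole pH 7.2, 0.01% Tween 20, 0.05% BSA; 1 h RT; PKLight luminescence; DMSO-normalized.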
# [3] = target: Endonuclease 4 (Escherichia coli (strain K12)) (UniProt P0A6C1); test: Counterscreen for APE1 Inhibitors: qHTS Validation Assay for Inhibitors of Endonuclease IV (AID 1708); further: on the % scale 0 is the no-effect control and ±100 the full control effect; conditions: E. coli endonuclease IV, DNA cleavage fluorescence; at 57.1 µM (top of the series)
# From the text: Assay Provider: David M. Wilson, III, National Institute on Aging, NIH
# Screening Center PI: Austin, C.P.
# Screening Center: NIH Chemical Genomics Center [NCGC]
# Escherichia coli endonuclease IV (Endo IV) is the key member of the AP endonuclease superfamily that catalyzes the cleavage of damaged DNA backbone immediately 5' of an AP site. E. coli EndoIV has the same functional activities as human APE1 but has no sequence or structural homology to the human protein. Herein, we utilize E. coli EndoIV to counter screen compound libraries as part of a high-throughput campaign for APE1 inhibitor identification. […]
# Inhibition of APE1 activity was screened by utilizing double-stranded short substrate containing tetrahydrofuran (THF) abasic site labeled with rhodamine-type fluorophore (TAMRA) at the 5'-end and with non-fluorescent Black Hole Quencher-2 (BHQ-2) at the opposing 3'-end. An increase in the fluorescence intensity due to incision of the abasic site by APE1 was used to measure the enzyme activity. […]
# Three uL of enzyme were dispensed to 1536-well Greiner black solid bottom plates. […] The plates were immediately transferred into ViewLux High-throughput CCD imager (Perkin-Elmer) in order to measure the reaction progress in kinetic mode (three reads every 60 seconds) using 525 nm excitation and 598 nm emission fluorescence protocol. […]
# [4] = Validation screen for inhibitors of Lassa infection (AID 463096; calls by dose curve; further: on the % scale 0 is the no-effect control and ±100 the full control effect); conditions: Lassa virus infection, cell-based; at 46.1 µM (top of the series)
# [5] = target: DNA polymerase III PolC-type (Bacillus subtilis (strain 168)) (UniProt P13267); test: qHTS Validation Assay for the Inhibitors of DNA Replication in Gram-Positive Bacteria (AID 485295); conditions: Gram-positive bacterial DNA replication assay; at 57.1 µM (top of the series);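 further: reconstituted holoenzyme with PolC plus beta clamp SSB and primase; PicoGreen fluorescence of double-stranded DNA made on primed circular M13 template; 0% = DMSO wells and -100% = EDTA-quenched background wells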
# Procedure, shortened: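 PicoGreen fluorescence (ex 480–485/em 535–540 nm) reports dsDNA synthesized on ssM13Gori template with dNTPs/NTPs. Enzyme: holoenzyme rebuilt from purified PolC, beta subunit, SSB and primase. Compound preincubated before substrate addition; RT throughout.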
# [6] = target: Tumor susceptibility gene 101 protein (Homo sapiens) (UniProt Q99816); test: qHTS Validation Assay for Iinhibitors of HIV-1 Budding by Blocking the Interaction of PTAP/TSG101 (AID 485342; calls by dose curve; further: 0% is about no effect); conditions: TSG101-PTAP binding, fluorescence polarization, 4-point titration; at 115 µM (top of the series)
# Procedure, shortened: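 FP read-out: FITC-PTAP peptide, 50 nM final, binding Tsg101 binding domain, 10 uM final; 20 min r.t.; 10 mM HEPES pH 7.5, 0.15 M NaCl, 0.01% Tween 20, 3 mM EDTA, 0.1 mM TCEP.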
# [7] = target: phosphoglycerate mutase (Leishmania major) (UniProt Q4Q090); test: qHTS Validation Assay to Find Inhibitors of Phosphoglycerate Mutase (AID 504548); conditions: biochemical enzyme activity; at 57.5 µM (top of the series); further: on the % scale 0 is the no-effect control and ±100 the full control effect
# Procedure, shortened: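 Luminescent end-point read-out via Kinase-GloPlus after a 10-minute development. Reaction: 1.25nM Leishmania major PGAM with substrate and compound, 45 minutes at room temperature in TEA buffer (pH 7.6) with MgCl2 and Tween-20.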
# [8] = qHTS of Trypanosoma Brucei Inhibitors: LOPAC Validation (AID 624147); conditions: Trypanosoma brucei growth inhibition; at 57.5 µM (top of the series); further: 0% is about no effect
# Procedure, shortened: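 TbPYK + substrate in 50 mM TEA pH 7.2, 100 mM KCl, 10 mM MgCl2, 0.05% BSA, 0.01% Tween-20; cpd pinned; ADP 130 uM final; 45 min RT; Kinase-Glo Plus 10 min; luminescence endpoint.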
# [9] = qHTS profiling of the MIPE4 collection as inhibitors of Plasmodium falciparum (3D7) proliferation (AID 743344; call rule not given here;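 further: scaled between DMSO vehicle wells and 0.29 µM artemisinin as full inhibition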); conditions: P. falciparum 3D7 in erythrocytes, SYBR Green DNA fluorescence, 72 h; at 9.64 µM (top of the series)
# [10] = qHTS profiling of the MIPE4 collection as inhibitors of Plasmodium falciparum (DD2) proliferation (AID 743345; call rule not given here); conditions: P. falciparum Dd2 in erythrocytes, SYBR Green DNA, 72 h; at 9.64 µM (top of the series)
smiles,measurement,setting,value
CC(C)OP(=O)(F)OC(C)C,"activity change, negative = inhibition",[1],inactive: 5.12%
C/C1=C2N=C(/C=C3N=C(/C(C)=C4\[N-][C@@](C)([C@H]5N=C1[C@@](C)(CCC(=O)NC[C@H](C)OP(=O)([O-])O[C@@H]1[C@H](O)[C@H](n6cnc7cc(C)c(C)cc76)O[C@@H]1CO)[C@@H]5CC(N)=O)[C@](C)(CC(N)=O)[C@H]4CCC(N)=O)[C@@](C)(CC(N)=O)[C@@H]\3CCC(N)=O)C(C)(C)[C@@H]/2CCC(N)=O.[C-]#N.[Co+3],"activity change, negative = inhibition",[1],inactive: 5.49% [at 24.3 µM]
O=[N+]([O-])[O-].[NH4+],"activity change, negative = inhibition",[1],inactive: -7.11%
O=[N+]([O-])OCC(CO[N+](=O)[O-])(CO[N+](=O)[O-])CO[N+](=O)[O-],"activity change, negative = inhibition",[1],inactive: 14.3%
OCCSCCO,"activity change, negative = inhibition",[1],inactive: -4.89%
N#[O+].[C-]#N.[C-]#N.[C-]#N.[C-]#N.[C-]#N.[Fe+2].[Na+].[Na+],"activity change, negative = inhibition",[2],inactive: 50.1%
same,"activity change, negative = inhibition",[3],inactive: 3.61%
same,"activity change, negative = inhibition",[4],inactive: -16.2%
same,"activity change, negative = inhibition",[5],inactive: 5.99%
same,fluorescence change,[6],inactive: -1.65%
same,"activity change, negative = inhibition",[7],inactive: -6.92%
same,"activity change, negative = inhibition",[8],inactive: -15.1%
O=[N+]([O-])c1cccc([N+](=O)[O-])c1,"activity change, negative = inhibition",[1],inactive: 13.1%
CC1=C2[N-][C@@](C)([C@@H]3N=C(C(C)=C4N=C(C=C5N=C1[C@@](C)(CC(N)=O)[C@H]5CCC(N)=O)C(C)(C)[C@H]4CCC(N)=O)[C@](C)(CCC(=O)NC[C@@H](C)OP(=O)([O-])O[C@H]1[C@@H](O)[C@@H](n4cnc5cc(C)c(C)cc54)O[C@H]1CO)[C@H]3CC(N)=O)[C@@](C)(CC(N)=O)[C@@H]2CCC(N)=O.[C-]#N.[Co+3],"parasite growth, % of DMSO control",[9],64.5%
same,"parasite growth remaining, % of DMSO control (lower = more inhibition)",[10],108%
CN(C)CCS,"activity change, negative = inhibition",[1],inactive: -8.61%
